Measured values from several laboratories, pooled; numbers as filed in NIAID ChemDB.

All rows: enzyme or target tests; species: HIV-1; target: Reverse transcriptase; read-out: inhibition

Percent inhibition refers to the dose given; in toxicity tests it is the harm to the cells. Rows are shuffled and stem from different studies. Blank or dashed fields: not listed here.

structure,strain or isolate,mutations,method,tested at,result
COC(=O)C(CNCc1cn([C@H]2C[C@H](n3cc(C)c(=O)[nH]c3=O)O[C@@H]2CO)nn1)C(O)c1cc(Cl)ccc1OCc1ccccc1,-,-,-,10 µM,10.3%
CCOC(=O)CN1C(=O)c2ccnnc2Oc2ccccc21,-,-,ELISA,330 µM,43%
CC(O)CCCCC[C@H]1CCCCCC[C@@H](C)NC(N)=[NH+]1.F[B-](F)(F)F,-,-,RT activity / radiometric,40 µM,0%
CC(C)=CCc1c(O[C@@H]2O[C@H](CO)[C@@H](O)[C@H](O)[C@H]2O)cc2c(c1O)C(=O)[C@H](O)[C@@H](c1ccc(O)cc1)O2,-,-,nucleotide incorporation / radiometric,200 µg/mL,0%
O=c1[nH]c(SCc2cn[nH]n2)nc(-c2ccc(Cl)cc2)c1Cl,-,-,RT activity / absorbance,100 µg/mL,85.26%
CC(C)=CCc1c(O[C@@H]2O[C@H](CO)[C@@H](O)[C@H](O)[C@H]2O)cc2c(c1O)C(=O)[C@H](O)[C@@H](c1ccc(O)c(O)c1)O2,-,-,nucleotide incorporation / radiometric,200 µg/mL,0%
CC1CN(c2cc3c(cc2F)c(=O)c(C(=O)O)cn3-c2cccc3ccccc23)CCN1.CS(=O)(=O)O,-,-,ELISA,1 µg/mL,24%
Nc1ncnc2c1ncn2C1CC(F)C(COP(=O)(O)OC2C(O)C(COP(=O)(O)OC3C(O)C(CO)OC3n3cnc4c(N)ncnc43)OC2n2cnc3c(N)ncnc32)O1,-,-,-,300 µM,99.7%
O=c1cc(Cc2ccccc2)nc(SCc2ccccc2)[nH]1,-,-,ELISA,100 µM,0%
O=C(CC(=O)Nc1ccc2ccccc2n1)Nc1cc(CCl)ccn1,-,-,RT activity / absorbance,100 µM,81.57%
CCN1c2ncccc2C(=O)Nc2c(COc3ccccc3)cc(OC)nc21,-,RT-Y181C,-,17 µM,1%
CS(=O)(=O)O.N[C@H]1CCN(c2nc3c(cc2F)c(=O)c(C(=O)O)cn3-c2ccc3ccccc3c2)C1,-,-,ELISA,1 µg/mL,63%
COC(=O)c1cc(O)c(O)c(O)c1,-,-,ELISA,12.5 µM,17%
CS(=O)(=O)O.N[C@H]1CCN(c2nc3c(cc2F)c(=O)c(C(=O)O)cn3-c2cccc3ccccc23)C1,-,-,ELISA,1 µg/mL,31%
CCCCCCCCCC(=O)OCCCC[C@H]1CCCCCC[C@@H](C)NC(N)=[NH+]1,-,-,RT activity / radiometric,10 µM,7.7%
CO[C@@H]1[C@H](O)[C@@H](COP(=O)(O)O[C@H]2C[C@H](n3cnc4c(=O)[nH]c(N)nc43)O[C@@H]2CO)O[C@H]1n1cnc2c(=O)[nH]c(N)nc21,-,-,RT activity,100 µM,6%
CC(=O)OCCCC[C@H]1CCCCCC[C@@H](C)NC(N)=[NH+]1,-,-,RT activity / radiometric,10 µM,4.3%
CCCCOC(=O)C(CNCc1cn([C@H]2C[C@H](n3cc(C)c(=O)[nH]c3=O)O[C@@H]2CO)nn1)C(O)c1cc(Cl)ccc1O,-,-,-,10 µM,-9.4%
CCN1c2ncccc2C(=O)Nc2c(CO)cc(OC)nc21,-,RT-Y181C,-,24 µM,1%
O=C(CC(=O)Nc1ncc(C(F)(F)F)cc1C(F)(F)F)Nc1ccc2ccccc2n1,-,-,RT activity / absorbance,100 µM,79.34%
COc1cc(O)c2c(=O)cc(-c3cc(OC)c(OC)c(OC)c3O)oc2c1,-,-,RT activity,200 µg/mL,82.2%
O=C(CC(=O)Nc1ccc2ccccc2n1)Nc1ccc(O)cn1,-,-,RT activity / absorbance,100 µM,84.34%
COc1c(C)c(O)c(C(C)=O)c(O)c1Cc1c(O)c(C(C)=O)c(O)c(C)c1OC,-,-,RT activity,10 µg/mL,26%
O=c1[nH]c(SCc2cn[nH]n2)nc(-c2ccccc2)c1Cl,-,-,RT activity / absorbance,100 µg/mL,67.84%
CC(=O)OC(C)CCCCC[C@H]1CCCCCC[C@@H](C)NC(N)=[NH+]1.F[B-](F)(F)F,-,-,RT activity / radiometric,10 µM,5.9%
CN1C(=O)c2cc(Cl)nnc2N(C2CC2)c2ccccc21,-,-,ELISA,33 µM,56%
CC1CN(c2nc3c(cc2F)c(=O)c(C(=O)O)cn3-c2cccc3ccccc23)CCN1.CS(=O)(=O)O,-,-,ELISA,1 µg/mL,49%
COc1cc(O)c2c(=O)cc(-c3cc(O)c(OC)c(OC)c3O)oc2c1,-,-,RT activity,200 µg/mL,0.83%
CCN1c2ncccc2C(=O)Nc2c(COc3ccccc3)cc(-c3cccc(OC)c3)nc21,-,RT-Y181C,-,37 µM,1%
O=C(CC(=O)Nc1ncc(Cl)cc1Cl)Nc1ccc2ccccc2n1,-,-,RT activity / absorbance,100 µM,78.33%
Cc1ccc2c(c1)N(CCC(C)C)C(=O)c1ccnnc1O2,-,-,ELISA,33 µM,20%
Nc1nc2c(ncn2[C@@H]2O[C@H](COP(=O)(O)O[C@H]3[C@@H](O)[C@H](n4cnc5c(=O)[nH]c(N)nc54)O[C@@H]3CO)[C@@H](O)[C@H]2O)c(=O)[nH]1,-,-,RT activity,100 µM,6%
CC(C)(C)c1ccc(CSc2nc(N)cc(Cc3ccccc3)n2)cc1,-,-,ELISA,100 µM,0%
CCN1c2ncccc2C(=O)Nc2c(C=O)cc(=O)[nH]c21,WT,-,-,36 µM,1%
CCCCN1C(=O)c2ccnnc2Oc2ccc(OC)cc21,-,-,ELISA,33 µM,1%
C[C@@H]1CN(c2nc3c(cc2F)c(=O)c(C(=O)O)cn3-c2cccc3ccccc23)C[C@H](C)N1,-,-,ELISA,1 µg/mL,39%
Nc1cc(Cc2ccccc2)nc(SCCCc2ccccc2)n1,-,-,ELISA,100 µM,0%
CCN1c2ncccc2C(=O)Nc2c(Cc3ccccc3)cc(-c3cccc(OC)c3)nc21,-,RT-Y181C,-,15 µM,1%
O=C(CC(=O)Nc1ccc2ccccc2n1)Nc1cc(Cl)ccn1,-,-,RT activity / absorbance,100 µM,65.41%
COc1ccccc1N1CCN(CC(O)CN2C(=O)C3=C(SCCS3)C2=O)CC1,-,-,RT activity,200 µg/mL,82.2%
C/C1=C\C=C\C2(C)C=C(CO[C@H]3O[C@H](CO)[C@H](O)[C@H](O)[C@H]3O)C(C)CC23OC([O-])C(C3=O)C(O)/C=C/C2(C)C=C(C=O)C(C)CC23OC([O-])C(C3=O)C(O)/C(C)=C/C=C/C2C=C(CO[C@H]3O[C@H](CO)[C@H](O)[C@H](O)[C@H]3O)C(C)CC23OC([O-])C(C3=O)C(O)/C=C/C2(C)C=C(C=O)C(C)CC23OC([O-])C(C3=O)C1O,IIIB,-,RT activity,4 µg/mL,84.3%
O=C1C2=C(SCCS2)C(=O)N1CCCCN1CCN(c2ccccc2)CC1,-,-,RT activity,200 µg/mL,82.2%
CS(=O)(=O)O.N[C@H]1CCN(c2cc3c(cc2F)c(=O)c(C(=O)O)cn3-c2ccc3ccccc3c2)C1,-,-,ELISA,1 µg/mL,50%
Cc1cccc(C)c1OCC(=O)N[C@@H](Cc1ccccc1)[C@H](O)[C@@H](O)[C@@H]1CCCN1C(=O)COc1c(C)cccc1C,-,-,-,0.000001 µM,75%
CCCCOC(=O)C(CNCc1cn([C@H]2C[C@H](n3cc(C)c(=O)[nH]c3=O)O[C@@H]2CO)nn1)C(O)c1cccc(OCC)c1O,-,-,-,10 µM,7.8%
CCN1c2ncccc2C(=O)Nc2c(COc3ccccc3)cc(=O)[nH]c21,WT,-,-,33 µM,1%
[N-]=[N+]=N[C@@H]1[C@H](F)[C@@H](COP(=O)(O)O[C@@H]2[C@H](O)[C@@H](COP(=O)(O)O[C@@H]3[C@H](O)[C@@H](CO)O[C@H]3n3cnc4c(N)ncnc43)O[C@H]2n2cnc3c(N)ncnc32)O[C@H]1n1cnc2c(N)ncnc21,-,-,-,300 µM,99.7%
CCN1C(=O)c2ccnnc2Oc2ccc(C)cc21,-,-,ELISA,33 µM,16%
Nc1ncnc2c1ncn2[C@@H]1O[C@H](CO)[C@@H](OP(O)(=S)OC[C@H]2O[C@@H](n3cnc4c(=O)[nH]c(NCc5cccc6ccccc56)nc43)[C@H](O)[C@@H]2O)[C@H]1F,-,-,RT activity,100 µM,7%
O=C(CC(=O)Nc1ncc(F)cc1F)Nc1ccc2ccccc2n1,-,-,RT activity / absorbance,100 µM,88.11%
Nc1ncnc2c1ncn2[C@@H](C=O)O[C@@H](C=O)COP(=O)(O)OP(=O)(O)OP(=O)(O)O,-,-,absorbance,100 µM,90%
CN1C(=O)c2cc(Cl)nnc2N(C2CC2)c2ncccc21,-,-,ELISA,33 µM,20%
C[C@@H]1CCCCCC[C@H](CCCCOCc2ccccc2)[NH+]=C(N)N1,-,-,RT activity / radiometric,10 µM,13.4%
CC1(C)CCC[C@]2(C)C3=C(C[C@H](C4=CCOC4=O)C3)C(=O)C[C@@H]12,-,-,RT activity / fluorescence,200 µg/mL,60%
Cc1ccccc1CSc1nc(Cl)cc(Cc2ccccc2)n1,-,-,ELISA,100 µM,0%
C=C(C)C(O)Cc1c(O)c(Cc2c(O)c(C(C)=O)c(O)c(C)c2OC)c(O)c(C(C)=O)c1O,-,-,RT activity,10 µg/mL,38%
CCN1c2ncccc2C(=O)Nc2c(COCc3ccccc3)cc(OC)nc21,-,RT-Y181C,-,26 µM,1%
COc1ccc(-c2coc3cc4c(c(OC)c3c2=O)OCO4)cc1OC,-,-,nucleotide incorporation / radiometric,200 µg/mL,0%

Again, the opening 7 rows:

structure	strain or isolate	mutations	method	tested at	result
COC(=O)C(CNCc1cn([C@H]2C[C@H](n3cc(C)c(=O)[nH]c3=O)O[C@@H]2CO)nn1)C(O)c1cc(Cl)ccc1OCc1ccccc1	-	-	-	10 µM	10.3%
CCOC(=O)CN1C(=O)c2ccnnc2Oc2ccccc21	-	-	ELISA	330 µM	43%
CC(O)CCCCC[C@H]1CCCCCC[C@@H](C)NC(N)=[NH+]1.F[B-](F)(F)F	-	-	RT activity / radiometric	40 µM	0%
CC(C)=CCc1c(O[C@@H]2O[C@H](CO)[C@@H](O)[C@H](O)[C@H]2O)cc2c(c1O)C(=O)[C@H](O)[C@@H](c1ccc(O)cc1)O2	-	-	nucleotide incorporation / radiometric	200 µg/mL	0%
O=c1[nH]c(SCc2cn[nH]n2)nc(-c2ccc(Cl)cc2)c1Cl	-	-	RT activity / absorbance	100 µg/mL	85.26%
CC(C)=CCc1c(O[C@@H]2O[C@H](CO)[C@@H](O)[C@H](O)[C@H]2O)cc2c(c1O)C(=O)[C@H](O)[C@@H](c1ccc(O)c(O)c1)O2	-	-	nucleotide incorporation / radiometric	200 µg/mL	0%
CC1CN(c2cc3c(cc2F)c(=O)c(C(=O)O)cn3-c2cccc3ccccc23)CCN1.CS(=O)(=O)O	-	-	ELISA	1 µg/mL	24%